Assay [1] has as its system Mus musculus. Briefly: Mean survival time of mice (Mus musculus) infected with Plasmodium berghei after administration of compound at the dose of 40 mg/kg.
For assay [2], the system named is Mus musculus. Briefly: Mean survival time of mice (Mus musculus) infected with Plasmodium berghei after administration of compound at the dose of 160 mg/kg.
Assay [3] relates to Mus musculus. Briefly: Mean survival time of mice (Mus musculus) infected with Plasmodium berghei after administration of compound at the dose of 80 mg/kg.
The subject of assay [4] is Plasmodium falciparum. Briefly: In vitro total parasite growth inhibition for chloroquine-sensitive Plasmodium falciparum FSH 14.
Assay [5] deals with Mus musculus. Put plainly: Mean survival time of mice (Mus musculus) infected with Plasmodium berghei after administration of compound at the dose of 20 mg/kg.
The test system of assay [6] is Plasmodium falciparum. Briefly: In vitro schizont maturation inhibition for chloroquine-sensitive Plasmodium falciparum FSH 14.
In assay [7] the test system is Plasmodium falciparum. Put plainly: In vitro schizont maturation inhibition for chloroquine-sensitive Plasmodium falciparum FJB D9.
Assay [8] has as its system Plasmodium falciparum. Put plainly: In vitro total parasite growth inhibition for chloroquine-sensitive Plasmodium falciparum FJB D9.

Structures are written as SMILES.

With `COc1ccc2c3c1O[C@@H]1[C@]34CCN(COOC(C)(C)C)[C@H](C2)[C@]42CC[C@@]1(OC)C(C(C)(O)C(C)(C)C)C2` (some centres not stated), the Mean survival time was 8.4 days in assay [1], 12.6 days in assay [2], 10 days in assay [3] and 7 days in assay [5]. The IC50 in assay [4] is 1.95 µM well-1; in assay [6] it was 2.65 µM well-1; in assay [7], 1.6 µM well-1; in assay [8], 1.45 µM well-1. Besides, the IC90 in assay [4] was 5 µM well-1; in assay [6] it was 5.6 µM well-1; in assay [7] it was 4.6 µM well-1; in assay [8], 4 µM well-1.

Source of the values: ChEMBL document CHEMBL1133927, “Antimalarial t-butylperoxyamines” (Bioorg Med Chem Lett, 2001).
